Measured values reported in patent US20090036380A1 (YEDA RESEARCH AND DEVELOPMENT, published 2009).

Molecular target: T1, TrkA (transfected expression construct)
T1 construct: also called TricA
Assay: co-immunoprecipitation with anti-HA, blot anti-TrkA (RTA), NNR5 cells

B1: HA-tagged Karet(228-453), C-terminal truncation mutant of mouse Karet (other)
chain: FLDRAIFDGASTPTHHLSLHSDDSSTKVDMKDSYDADASTFCFPDSGDVGGLPPLPFCMQTSPHSKTVSESELSTSATELLQDYMLTLRTKLSSQEIQQFAALLHEYRNGASIHEFCISLRQLYGDSRKFLLLGLRPFIPEKDSQHFENFLETIGVKDGRGIITDSFGRHRRALSTTSTSTINGNRTTGSPDDRSAPSEGDEWDRMISDISSDIEALGCSMDQDSA
notes: also called non-PTB; Ha non PTB; not shown: HA tag
B1: no binding.
